Measured values reported in ChEMBL document CHEMBL1129975, “Depsides and depsidones as inhibitors of HIV-1 integrase: discovery of novel inhibitors through 3D database searching” (J Med Chem, 1997).

What follows are compounds tested against Human immunodeficiency virus type 1 integrase (Human immunodeficiency virus 1) (UniProt Q7ZJM1) (assay: Percentage inhibition of compound against 3'-processing of HIV-1 integrase at 100 ug/mL).
O=[N+]([O-])c1c(Cl)c(O)c(Cl)c([N+](=O)[O-])c1Nc1c([N+](=O)[O-])c(Cl)c(O)c(Cl)c1[N+](=O)[O-] showed an inhibition of 94.7%.
O=[N+]([O-])c1cc(Cc2cc([N+](=O)[O-])c(O)c([N+](=O)[O-])c2)cc([N+](=O)[O-])c1O gave an inhibition of 92.7%.
With O=C(c1ccc(O)cc1O)c1c([N+](=O)[O-])cc([N+](=O)[O-])cc1[N+](=O)[O-] the inhibition was 93.5%.
Work on O=[N+]([O-])c1cc(-c2cc([N+](=O)[O-])c(O)c([N+](=O)[O-])c2)cc([N+](=O)[O-])c1O yielded an inhibition of 92.6%.
In the case of O=C(O)C(CSSCC(Nc1ccc([N+](=O)[O-])cc1[N+](=O)[O-])C(=O)O)Nc1ccc([N+](=O)[O-])cc1[N+](=O)[O-] (stereo not given), the inhibition is reported as 86.7%.
